Measurements published in US5688767A, “Treatment of endotoxin-associated disorders with cationic peptides” (priority 1996, dated 1997).
Values after ≈ are worked out from the molar mass of the structure shown.

Tests used:
E. cloacae = format: cell-based, Enterobacter cloacae; conditions: strain 218R1, β-lactam resistant
Procedure: (§1) The minimum inhibitory concentrations of (MIC) of CEME, CEMA and melittin were determined for a number of different bacteria (Table 2). Briefly, cells were grown overnight at 37° C. in LB-S (Luria broth without any salt supplement) and diluted one in 10,000 in the same medium to give concentrations of about 10^4 to 10^5 CFU/ml. The broth dilutions were set up in a 96 well microtiter plate by putting 200 μl of LB-S containing the initial concentration of antibiotic or compound in column 1 and 100 μl of the same medium in columns 2-12. The compounds were diluted by taking 100 μl of broth from column 1 and mixing it with column 2, resulting in a one in two dilution. This was continued to column 10. Finally, 10 μl of bacteria were pipetted into columns 1-11, and the plates incubated overnight at 37° C. The next day the plates were scored for growth in the wells, and the MIC determined.
(§2) Bacteria included the Bort strain of E. coli (Bortolussi, et al., Inf. Immun., 25:293, 1979) that was originally derived from a case of neonatal meningitis, and which is therefore considered a relevant pathogenic strain to study, and the 0111:B4 strain of E. coli (kindly provided by Dr. D. Morrison) which is a standard source of endotoxin. (Kelly, et al., Inf. Immun., 59:4491, 1991). […]

E. coli = format: cell-based, Escherichia coli; conditions: strain SC9252, Polymyxin resistant
Procedure: as §1, §2

SMILES: CC[C@H](C)[C@H](NC(=O)CN)C(=O)NCC(=O)N[C@@H](C)C(=O)N[C@H](C(=O)N[C@@H](CC(C)C)C(=O)N[C@@H](CCCCN)C(=O)N[C@H](C(=O)N[C@@H](CC(C)C)C(=O)N[C@H](C(=O)N[C@H](C(=O)NCC(=O)N[C@@H](CC(C)C)C(=O)N1CCC[C@H]1C(=O)N[C@@H](C)C(=O)N[C@@H](CC(C)C)C(=O)N[C@H](C(=O)N[C@@H](CO)C(=O)N[C@@H](Cc1c[nH]c2ccccc12)C(=O)N[C@H](C(=O)N[C@@H](CCCCN)C(=O)N[C@@H](CCCNC(=N)N)C(=O)N[C@@H](CCCCN)C(=O)N[C@@H](CCCNC(=N)N)C(=O)N[C@@H](CCC(N)=O)C(=O)N[C@@H](CCC(N)=O)C(N)=O)[C@@H](C)CC)[C@@H](C)CC)[C@@H](C)O)[C@@H](C)O)C(C)C)C(C)C [Melittin, melittin]
- MIC (E. cloacae): 8 µg/mL (≈ 2.81 µM)
- MIC (E. coli): 8 µg/mL (≈ 2.81 µM)
